Assay results as given in ChEMBL document CHEMBL4811216, “Chemotherapy for human schistosomiasis: how far have we come? What's new? Where do we go from here?” (RSC Med Chem, 2020).

By UniProt entry, the sequences of proteins in these tests, tags left out. Residues count along the entry.
UniProt Q962Y6, 1-598: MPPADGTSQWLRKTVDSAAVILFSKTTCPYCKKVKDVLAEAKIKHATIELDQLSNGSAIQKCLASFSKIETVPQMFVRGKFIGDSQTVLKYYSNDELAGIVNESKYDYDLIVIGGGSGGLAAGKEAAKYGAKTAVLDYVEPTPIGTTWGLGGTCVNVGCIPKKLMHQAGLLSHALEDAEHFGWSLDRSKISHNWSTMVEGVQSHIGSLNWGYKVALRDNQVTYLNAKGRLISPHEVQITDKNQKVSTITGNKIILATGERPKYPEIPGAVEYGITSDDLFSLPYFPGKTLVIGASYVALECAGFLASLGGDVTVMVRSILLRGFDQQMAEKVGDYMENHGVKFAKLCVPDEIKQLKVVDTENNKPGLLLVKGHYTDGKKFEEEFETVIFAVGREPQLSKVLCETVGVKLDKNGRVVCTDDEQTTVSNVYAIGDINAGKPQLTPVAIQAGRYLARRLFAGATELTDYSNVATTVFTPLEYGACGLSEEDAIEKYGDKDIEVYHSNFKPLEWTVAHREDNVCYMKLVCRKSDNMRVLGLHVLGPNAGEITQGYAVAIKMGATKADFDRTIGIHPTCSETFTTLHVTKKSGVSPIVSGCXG

Target: Thioredoxin glutathione reductase (Schistosoma mansoni, UniProt Q962Y6)
Assay: Inhibition of Schistosoma mansoni thioredoxin glutathione reductase incubated for 50 mins by thio-glo reagent based fluorescence method

With CCNc1sc(Br)c([N+](=O)[O-])c1[N+](=O)[O-] the IC50 was 3.15 µM.
